According to patent publication US12636285B2 (dated 2026):

System: HIV-1
Settings: in vivo

Question: How did the “phenotypic resistance conferred by IN L74I at baseline” value turn out when `C[C@H]1CO[C@@H]2Cn3cc(C(=O)NCc4ccc(F)cc4F)c(=O)c(O)c3C(=O)N12` [Cabotegravir, (3S,11aR)-N-[(2,4-difluorophenyl)methyl]-6-hydroxy-3-methyl-5,7-dioxo-2,3,5,7,11,11a-hexahydro[1,3]oxazolo[3,2-a]pyrido[1,2-d]pyrazine-8-carboxamide] was run?
Answer: Its value is “no detectable phenotypic resistance”.
